Laboratory results: PMC11837568

Key:
[1] = biological target: T1, His-CioR (Chromobacterium violaceum) (UniProt Q7NRW9); assay: competition with a labelled probe; conditions: 10-fold excess unlabeled specific probe vs N1, 1 uM His-CioR; 20 mM Tris-HCl pH 8.0, 50 mM NaCl, 1.5 mM MgSO4, 0.5 mM CaCl2, 0.1 mg/mL BSA, 1 mM DTT, 0.05% NP-40, 10% glycerol, 0.1 mg/mL salmon sperm DNA, 50 ng probe, 20 uL; 37 C; recombinant protein; residues 1-191; probe letters rebuilt from the primers and the genome
T1 sequence (looked up): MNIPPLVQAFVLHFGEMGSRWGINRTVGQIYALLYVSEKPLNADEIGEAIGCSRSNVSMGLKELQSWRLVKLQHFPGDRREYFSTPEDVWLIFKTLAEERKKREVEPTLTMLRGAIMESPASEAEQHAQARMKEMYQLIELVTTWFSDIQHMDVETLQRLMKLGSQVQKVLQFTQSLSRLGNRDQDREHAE

[2] = biological target: T1, His-CioR (Chromobacterium violaceum); assay: EMSA; conditions: 20 mM Tris-HCl pH 8.0, 50 mM NaCl, 1.5 mM MgSO4, 0.5 mM CaCl2, 0.1 mg/mL BSA, 1 mM DTT, 0.05% NP-40, 10% glycerol, 0.1 mg/mL salmon sperm DNA, 50 ng probe, 20 uL, 37 C, recombinant protein, residues 1-191, probe letters rebuilt from the primers and the genome

Measured: binding result

AAATGCAGCACGAAAGCCTGCACCAGAGGTGGAATATTCATGACATTCTCAACTTTCAGGAATTTCTGAAACTTTGATATGAATCATAGTTGCCCAAGATAGTTCGGGTCAAGATGAACAAAGTCTGATCTGTAGGCTTGACCATACCTCCATGTCATGAATGCGCGCGCAAAAAAGGCCATGCATCGCATGGCCTGGATCGTGGAGAGCCGGGCGGCGTTCCGACTCGCGGCTGGCCGCGACTCCGTTACCGCAGCAGGATCGCGCGAAAATCGTTGACGTTGGTATGGGTGGGGCCGGTGACCAGCAGATCGCCCAGCG (double strand) [cioRAB promoter unlabeled probe]
binds: [1] | [2]; H2O2 | [2]; iron + EDTA | [2]; no stressor, ethidium bromide detection | [2]; streptonigrin | [2]; zinc + EDTA

AAATGCAGCACGAAAGCCTGCACCAGAGGTGGAATATTCATGACATTCTCAACTTTCAGGAATTTCTGAAACTTTGATATGAATCATAGTTGCCCAAGATAGTTCGGGTCAAGATGAACAAAGTCTGATCTGTAGGCTTGACCATACCTCCATGTCATGAATGCGCGCGCAAAAAAGGCCATGCATCGCATGGCCTGGATCGTGGAGAGCCGGGCGGCGTTCCGACTCGCGGCTGGCCGCGACTCCGTTACCGCAGCAGGATCGCGCGAAAATCGTTGACGTTGGTATGGGTGGGGCCGGTGACCAGCAGATCGCCCAGCG (double strand) [cioRAB-FAM promoter probe]
binds: [2]; salmon sperm DNA 0.1 mg/mL, label: 6-FAM (5' of reverse primer)

Where a protein sequence is shown, tags need not be part of it. Construct, isoform or probe ends are uncertain for at least one entry. At least one verdict was read from the data and is not stated in words by the source.
